Results published in US20130065259.

What was measured:
[1] = target: T1, BoNT/A cleavable peptide #116: [4-Mu]TRIDEANQRATK[DABCYL]-Nle
T1 chain: TRIDEANQRATKX

[2] = target: T2, Control peptide #112: [5-Fam]TRIDEANQRATK[DABCYL]-Hex
T2 chain: TRIDEANQRATKX

[3] = target: T3, Control peptide #113: [4-Mu]TRIDEANQRATK[DABCYL]-Hex
T3 chain: TRIDEANQRATKX

[4] = target: T4, BoNT/A cleavable peptide #115: [5-Fam]TRIDEANQRATK[DABCYL]-Nle
T4 chain: TRIDEANQRATKX

B1: Trypsin (protein)
chain: IVGGYTCAANSIPYQVSLNSGSHFCGGSLINSQWVVSAAHCYKSRIQVRLGEHNIDVLEGNEQFINAAKIITHPNFNGNTLDNDIMLIKLSSPATLNSRVATVSLPRSCAAAGTECLISGWGNTKSSGSSYPSLLQCLKAPVLSDSSCKSSYPGQITGNMICVGFLEGGKDSCQGDSGGPVVCNGQLQGIVSWGYGCAQKNKPGVYTKVCNYVNWIQQTIAAN
Protein B1 has a KM [1] of 3.4 µM, a KM [2] of 3.75 µM and a KM [3] of 13.3 µM. The KM [4] was 9.67 µM.
